# Measurements from PubChem BioAssay AID588335 (The Scripps Research Institute Molecular Screening Center, 2011).
# The entries are a selection whose mix differs from that of the whole data set. Some structures show a salt or complex split into parts, the way the source records it. The source made the active and inactive calls. Rule as the data show it: active = inhibition above about 30%; inactive = the rest.
# Assay: inhibition of GDH and TPI enzymes – biochemical, absorbance, full deck, artefact control for M. tuberculosis FBA inhibitor project, primary screen (AID 588335);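 also: 0% = DMSO wells and 100% = wells lacking the enzyme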
# Conditions: GDH-TPI coupled enzyme counterscreen, NADH absorbance; at 4.8 µM; stronger effect = higher value
row,Structure (SMILES),inhibition
1,CP(=O)(Nc1ccccn1)Oc1ccccc1 (configuration not stated),inactive: 9.7%
2,O=[N+]([O-])c1cc([N+](=O)[O-])c(Nc2ccccn2)c([N+](=O)[O-])c1,inactive: -2.24%
3,Cc1c(NP(C)(=O)Oc2ccc(C(C)C)cc2)c(=O)n(-c2ccccc2)n1C (configuration not stated),inactive: -1.56%
4,CN(C)CCOC(=O)C(O)(c1ccccc1)C1CCCC1 (configuration not stated),inactive: 1.67%
5,COc1ccc(OP(C)(=O)Nc2ccccn2)cc1 (configuration not stated),inactive: 1.85%
6,COc1ccccc1OP(C)(=O)Nc1ccc(Br)cc1 (configuration not stated),inactive: 6.22%
7,CP(=O)(OCCOc1ccccc1)OCCOc1ccccc1,inactive: -3.92%
8,CP(=O)(Nc1ccc(Cl)cc1Cl)Oc1ccccc1 (configuration not stated),inactive: 3.75%
9,CCCCCCCCCCCCCCCC1C[N+](C)(C)CCOP(C)(=O)O1 (configuration not stated),inactive: 14.7%
10,COc1ccc(OP(C)(=O)Nc2ccccc2Br)cc1 (configuration not stated),inactive: -1.1%
11,COc1ccccc1OP(C)(=O)Nc1ccc(C)c(C)c1 (configuration not stated),inactive: 4.5%
12,Cc1cc(C)cc(OP(C)(=O)Nc2cccc(C(F)(F)F)c2)c1 (configuration not stated),inactive: 0%
13,O=C1C(O)=C([N+](=O)[O-])C(=O)C(O)=C1[N+](=O)[O-],inactive: -2.16%
14,O=[N+]([O-])c1cc([N+](=O)[O-])c(OC2CCCCC2O)c([N+](=O)[O-])c1 (configuration not stated),active: 36.1%
15,CCCCCOc1ccc(NP(C)(=O)Oc2ccc(Cl)cc2Cl)cc1 (configuration not stated),inactive: -2.07%
16,CP(=O)(Nc1ccccc1)Oc1ccc(F)cc1 (configuration not stated),inactive: 3.53%
17,CCN(CC)CCCOC(=O)C(O)(c1ccccc1)C1CCCCC1 (configuration not stated),inactive: -2.78%
18,Cc1c([N+](=O)[O-])cc([N+](=O)[O-])c(Br)c1[N+](=O)[O-],inactive: 24.6%
19,COc1ccc(OP(C)(=O)Nc2ccc(SC(F)(F)F)cc2)cc1 (configuration not stated),inactive: -10.4%

row,Structure (SMILES),inhibition
1,CCOC(=O)c1ccc(NP(C)(=O)Oc2ccc(F)cc2)cc1 (configuration not stated),inactive: 16.1%
2,COc1ccc2c(c1O)-c1c(O)c(OC)cc3c1[C@H](C2)[N+](C)(C)CC3.O=[N+]([O-])c1cc([N+](=O)[O-])c([O-])c([N+](=O)[O-])c1[O-],inactive: 24.9%
3,O=C(OCCN1CCN(CCOCc2ccccc2)CC1)C(O)(c1ccccc1)c1ccccc1,inactive: 4.94%
4,O=C(OC1CN2CCC1CC2)c1ccc([N+](=O)[O-])cc1 (configuration not stated),inactive: 8.03%
5,CC(C)c1ccc(OP(C)(=O)Nc2ccc(SC(F)(F)F)cc2)cc1 (configuration not stated),inactive: 0%
6,CP(=O)(Nc1ccccc1F)Oc1ccccc1 (configuration not stated),inactive: 1.22%
7,O=[N+]([O-])c1cc([N+](=O)[O-])c(Nc2ccc(Cl)cc2)c([N+](=O)[O-])c1,inactive: 24.8%
8,Cc1ccccc1NP(C)(=O)Nc1ccccc1C,inactive: -2.24%
9,CP(=O)(Nc1ccc2c(c1)OCCO2)Oc1ccccc1 (configuration not stated),inactive: -5.93%
10,CCOP(C)(=S)SCC(=O)NC(C)(CC)C(=O)O (configuration not stated),inactive: -7.1%
11,CP(=O)(Nc1ccc(SC(F)(F)F)cc1)Oc1ccc(F)cc1 (configuration not stated),inactive: 3.21%
12,Cc1c(C(c2ccc3c(c2)OCO3)c2c(C)n(C)n(-c3ccccc3)c2=O)c(=O)n(-c2ccccc2)n1C.O=[N+]([O-])c1cc([N+](=O)[O-])c(O)c([N+](=O)[O-])c1,inactive: 2.94%
13,O=[N+]([O-])c1cc([N+](=O)[O-])c(NCC2CCS(=O)(=O)C2)c([N+](=O)[O-])c1 (configuration not stated),inactive: 24.7%
14,Cc1cc(-c2cccc3ccccc23)c(C)cn1.O=[N+]([O-])c1cc([N+](=O)[O-])c(O)c([N+](=O)[O-])c1,inactive: 22.5%
15,O=[N+]([O-])c1ccc(OP2(=O)COCCO2)cc1 (configuration not stated),inactive: -4.83%
16,COc1ccc(NP(C)(=O)Oc2ccccc2OC)cc1 (configuration not stated),inactive: -3.18%
17,CN(C)CCOC(=O)C(O)(c1ccccc1)C1CCCCC1 (configuration not stated),inactive: 7.6%
18,COc1ccc(OP(C)(=O)Nc2cccc(Br)c2)cc1 (configuration not stated),inactive: 0%
